Results: patent US20230181681A1, “PEPTIDE FOR SUPPRESSING CORONAVIRUS AND USE THEREOF” (priority 2020, published 2023)

Biological target: T1, HCoV-OC43 N protein (HCoV-OC43), P33469
T1 chain: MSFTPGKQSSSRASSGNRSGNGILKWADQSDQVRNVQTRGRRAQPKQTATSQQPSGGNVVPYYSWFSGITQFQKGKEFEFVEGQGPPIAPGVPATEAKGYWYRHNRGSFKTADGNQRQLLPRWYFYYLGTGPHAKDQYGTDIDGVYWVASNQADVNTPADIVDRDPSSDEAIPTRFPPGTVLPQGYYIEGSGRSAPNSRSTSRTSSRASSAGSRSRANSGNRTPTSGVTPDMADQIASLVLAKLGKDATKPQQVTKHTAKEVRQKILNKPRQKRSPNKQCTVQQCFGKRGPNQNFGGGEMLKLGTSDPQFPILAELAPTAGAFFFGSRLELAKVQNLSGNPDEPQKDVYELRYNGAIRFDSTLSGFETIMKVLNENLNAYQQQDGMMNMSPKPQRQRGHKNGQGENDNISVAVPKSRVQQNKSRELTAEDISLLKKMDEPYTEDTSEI
Test: cell-based or functional assay

Question: For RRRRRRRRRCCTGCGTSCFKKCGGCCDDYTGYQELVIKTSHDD (modifications not checked) [R-Spike CD-OC43], which HCoV-OC43 production (plaque formation assay, 2 uM peptide) is on record?
Answer: The HCoV-OC43 production (plaque formation assay, 2 uM peptide) was 20%.
